The record followed here is patent US20240123029A1 (HUMANITAS MIRASOLE S P A, published 2024).

For experiment [1], the target named is T1, SARS-CoV-2 Nucleocapsid protein, His Tag (SARS-CoV-2).
T1 construct: Bought
The experiment can be described thus: ELISA on N protein-coated plate, CL-K1 detected with anti-CL-K1 antibody.

The target of experiment [2] is T1, SARS-CoV-2 Nucleocapsid protein, His Tag. The experiment can be described thus: ELISA on N protein-coated plate, Ficolin-2 detected with anti-Ficolin-2 antibody. A general note: ELISA stands for enzyme-linked immunosorbent assay.

B1: Recombinant human Collectin-11 (CL-K1) (other)
chain: QPAGDDACSVQILVPGLKGDAGEKGDKGAPGRPGRVGPTGEKGDMGDKGQKGSVGRHGKIGPIGSKGEKGDSGDIGPPGPNGEPGLPCECSQLRKAIGEMDNQVSQLTSELKFIKNAVAGVRETESKIYLLVKEEKRYADAQLSCQGRGGTLSMPKDEAANGLMAAYLAQAGLARVFIGINDLEKEGAFVYSDHSPMRTFNKWRSGEPNNAYDEEDCVEMVASGGWNDVACHTTMYFMCEFDKENM
Turning to B1, the binding result in experiment [1] was “no binding”.

B2: Recombinant human Ficolin-2 (other)
chain: LQAADTCPEVKMVGLEGSDKLTILRGCPGLPGAPGPKGEAGTNGKRGERGPPGPPGKAGPPGPNGAPGEPQPCLTGPRTCKDLLDRGHFLSGWHTIYLPDCRPLTVLCDMDTDGGGWTVFQRRVDGSVDFYRDWATYKQGFGSRLGEFWLGNDNIHALTAQGTSELRVDLVDFEDNYQFAKYRSFKVADEAEKYNLVLGAFVEGSAGDSLTFHNNQSFSTKDQDNDLNTGNCAVMFQGAWWYKNCHVSNLNGRYLRGTHGSFANGINWKSGKGYNYSYKVSEMKVRPA
B2: the binding result in experiment [2] is given as “no binding”.
